Measured values from several laboratories, pooled; numbers as filed in NIAID ChemDB.

All rows: whole-cell or culture tests; agent: Candida albicans; method: agar diffusion; read-out: zone

Zone: diameter of growth inhibition. Conditions beyond the fields shown may differ between rows. An empty or dashed field is not shown.

structure | strain or isolate | dose | result
COc1ccc(C2SCC(=O)N2Nc2nc3ccccc3n3nnnc23)cc1 | ATCC 2091 | 50 µg/mL | 7 mm
N#Cc1c(F)c(Cl)c(Nc2ccc(Nc3ccccc3)c3c(=O)[nH]cnc23)c(C#N)c1F | ATCC 10231 | 1000 µg/mL | 0 mm
C[C@@H]1[C@@H](COCC(=O)O)C[C@@H](O[C@H]2[C@H](O)[C@@H](N(Cc3cccc(Br)c3)CC(O)C[N+](C)(C)C)[C@H](O[C@H]3[C@H](O)[C@@H](N(Cc4cccc(Br)c4)CC(O)C[N+](C)(C)C)[C@H](C)O[C@@H]3COCC(=O)O)O[C@@H]2COCC(=O)O)[C@H](N(Cc2cccc(Br)c2)CC(O)C[N+](C)(C)C)[C@H]1O | RCMB 05031 | 1 mg/mL | 23.4 mm
Cn1c(=O)c(-c2[nH][nH]c(=O)c2C=Nc2cccnc2)c(O)c2ccccc21 | ATCC 10231 | 1 mg/mL | 17 mm
CC(=O)Nc1nc(C)c(-c2n[nH]c(=S)n2N2C(=O)CSC2c2ccccc2O)s1 | - | 100 µg/mL | 10 mm
COc1ccccc1/C=N/N=C1/NC(=O)/C(=C\c2coc3ccc(Cl)cc3c2=O)S1 | ATCC 10231 | 200 µg | 0 mm
CCOC(=O)C1CCN(Cn2nc(C34CC5CC(CC(C5)C3)C4)n(/N=C/c3c(F)cccc3Cl)c2=S)CC1 | IFO 3007 | 200 µg/disc | <10 mm
COc1ccc(C2C(Cl)C(=O)N2Nc2nc3ccccc3n3nnnc23)cc1 | ATCC 2091 | 100 µg/mL | 11 mm
CCCCCCCCN(CC(O)C[N+](C)(C)C)[C@@H]1[C@@H](O)[C@H](O[C@@H]2O[C@H](COCC(=O)O)[C@@H](O[C@@H]3C[C@H](COCC(=O)O)[C@@H](C)[C@H](O)[C@H]3N(CCCCCCCC)CC(O)C[N+](C)(C)C)[C@H](O)[C@H]2N(CCCCCCCC)CC(O)C[N+](C)(C)C)[C@@H](COCC(=O)O)O[C@H]1C | RCMB 05031 | 1 mg/mL | 13.9 mm
Fc1cccc(F)c1/C=N/n1c(C23CC4CC(CC(C4)C2)C3)n[nH]c1=S | IFO 3007 | 200 µg/disc | <10 mm
CC(=O)Nc1nc(C)c(-c2n[nH]c(=S)n2N2C(=O)CSC2c2ccc(Br)cc2)s1 | - | 100 µg/mL | 28 mm
CC1(C)CCC2=C(C1=O)C(c1ccc(C3C4=C(CCC(C)(C)C4=O)OC4=C3C(=O)C(C)(C)CC4)cc1)C1=C(CCC(C)(C)C1=O)O2 | ATCC 10231 | 40 µg/disc | 0 mm
Cn1c(SCCN2CCCC2)nnc1C12CC3CC(CC(C3)C1)C2 | IFO 0583 | 200 µg/disc | <10 mm
C[C@H]1[C@H](O)[C@@H](C)/C=C/C=C/C=C/C=C/C=C/C=C/C=C/[C@H](O[C@@H]2O[C@H](C)[C@@H](O)[C@H](N)[C@@H]2O)C[C@@H]2O[C@](O)(C[C@@H](O)C[C@@H](O)CC[C@H](O)[C@@H](O)C[C@@H](O)CC(=O)O[C@H]1C)C[C@H](O)[C@H]2C(=O)O | ATCC 10231 | 1 mg/mL | 20 mm
O=C1CCCC2=C1C(c1ccc(C3C4=C(CCCC4=O)OC4=C3C(=O)CCC4)cc1)C1=C(CCCC1=O)O2 | ATCC 10231 | 20 µg/disc | 7 mm
O=C1CSC(c2ccc(O)cc2)N1Nc1nc2ccccc2n2nnnc12 | ATCC 2091 | 100 µg/mL | 13 mm
CC(=O)Nc1nc(C)c(-c2n[nH]c(=S)n2N2C(=O)CSC2c2ccc(F)cc2)s1 | - | 100 µg/mL | 16 mm
C[C@H]1[C@H](O)[C@@H](C)/C=C/C=C/C=C/C=C/C=C/C=C/C=C/[C@H](O[C@@H]2O[C@H](C)[C@@H](O)[C@H](N)[C@@H]2O)C[C@@H]2O[C@](O)(C[C@@H](O)C[C@@H](O)CC[C@H](O)[C@@H](O)C[C@@H](O)CC(=O)O[C@H]1C)C[C@H](O)[C@H]2C(=O)O | CA2 | 100 µg/disc | 15 mm
O=C1CSC(c2ccccc2F)N1Nc1nc2ccccc2n2nnnc12 | ATCC 2091 | 100 µg/mL | 10 mm
COCCSc1nnc(C23CC4CC(CC(C4)C2)C3)n1-c1ccccc1 | IFO 0583 | 200 µg/disc | <10 mm
O=C1CSC(c2ccccc2)N1Nc1nc2ccccc2n2nnnc12 | ATCC 2091 | 100 µg/mL | 9 mm
CCOC(=O)N1CCN(Cn2nc(C34CC5CC(CC(C5)C3)C4)n(-c3ccccc3)c2=S)CC1 | IFO 0583 | 200 µg/disc | <10 mm
C/C=C/C1=CC2=CC(=O)[C@](C)(OC(=O)c3c(C)cc(O)c(O)c3OC)C(=O)C2=CO1 | ATCC 64548 | 20 µg/disc | 0 mm
C[C@@H]1[C@@H](COCC(=O)O)C[C@@H](O[C@H]2[C@H](O)[C@@H](N(Cc3cccc(Cl)c3)CC(O)C[N+](C)(C)C)[C@H](O[C@H]3[C@H](O)[C@@H](N(Cc4cccc(Cl)c4)CC(O)C[N+](C)(C)C)[C@H](C)O[C@@H]3COCC(=O)O)O[C@@H]2COCC(=O)O)[C@H](N(Cc2cccc(Cl)c2)CC(O)C[N+](C)(C)C)[C@H]1O | RCMB 05031 | 1 mg/mL | 19.5 mm
O=C1C(Cl)C(c2ccc([N+](=O)[O-])cc2)N1Nc1nc2ccccc2n2nnnc12 | ATCC 2091 | 100 µg/mL | 13 mm
Cc1ccc(Nc2ccc(N)c3nc[nH]c(=O)c23)cc1 | ATCC 10231 | 1000 µg/mL | 0 mm
COc1ccccc1/C=c1\c(=O)[nH][nH]\c1=C1/C(=O)c2ccccc2N(C)C1=O | ATCC 10231 | 1 mg/mL | 10 mm
O=C1N/C(=N/N=C/c2csc(-c3ccccc3)n2)S/C1=C/c1ccc(Br)cc1 | ATCC 10231 | 200 µg | 0 mm
CC1/C(=N\O)C(=O)NCCCOc2c(O)cc(c(Br)c2Br)C/C2=N\O[C@@H]3[C@H](Br)[C@@]4(C=C[C@@]3(O)C/C(=N\O)C(=O)NC[C@@H](O)[C@H](O)[C@H](O)CNC2=O)Oc2cc1cc(Br)c2O4 | - | 50 µg/disc | 11 mm
Nc1ccc(Nc2ccccc2)c2c(=O)[nH]cnc12 | ATCC 10231 | 1000 µg/mL | 0 mm
Cn1c(C23CC4CC(CC(C4)C2)C3)nn(CCN2CCCC2)c1=S | IFO 0583 | 200 µg/disc | <10 mm
O=C1N/C(=N/N=C/c2ccc(Cl)cc2Cl)S/C1=C/c1ccc(Br)cc1 | ATCC 10231 | 200 µg | 0 mm
CC(=O)Nc1nc(C)c(-c2n[nH]c(=S)n2N2C(=O)CSC2c2ccccc2)s1 | - | 100 µg/mL | 26 mm
COc1ccc(C2CC(=O)C3=C(C2)OC2=C(C(=O)CC(c4ccc(OC)c(OC)c4)C2)C3c2cccc(C3C4=C(CC(c5ccc(OC)c(OC)c5)CC4=O)OC4=C3C(=O)CC(c3ccc(OC)c(OC)c3)C4)c2)cc1OC | ATCC 10231 | 20 µg/disc | 7 mm
COc1ccccc1N1CCN(Cn2nc(C34CC5CC(CC(C5)C3)C4)n(-c3ccccc3)c2=S)CC1 | IFO 0583 | 200 µg/disc | <10 mm
Cc1cc(C)cc(Nc2ccc(N)c3nc[nH]c(=O)c23)c1 | ATCC 10231 | 1000 µg/mL | 0 mm
O=C1C(Cl)C(c2ccccc2Cl)N1Nc1nc2ccccc2n2nnnc12 | ATCC 2091 | 100 µg/mL | 11 mm
Cn1c(=O)c(-c2[nH][nH]c(=O)c2N=Nc2ccccc2Cl)c(O)c2ccccc21 | ATCC 10231 | 1 mg/mL | 12 mm
CCN(CC)c1ccc(N)c2nc[nH]c(=O)c12 | ATCC 10231 | 1000 µg/mL | 0 mm
O=C1C(Cl)C(c2ccc(C(F)(F)F)cc2)N1Nc1nc2ccccc2n2nnnc12 | ATCC 2091 | 50 µg/mL | 7 mm
O=C1CC(c2ccccc2)CC2=C1C(c1cccc(C3C4=C(CC(c5ccccc5)CC4=O)OC4=C3C(=O)CC(c3ccccc3)C4)c1)C1=C(CC(c3ccccc3)CC1=O)O2 | ATCC 10231 | 20 µg/disc | 7 mm
CCN1CCN(Cn2nc(C34CC5CC(CC(C5)C3)C4)n(/N=C/c3c(Cl)cccc3Cl)c2=S)CC1 | IFO 3007 | 200 µg/disc | <10 mm
O=C1N/C(=N/N=C/c2c(Cl)cccc2Cl)S/C1=C/c1ccc(Cl)cc1Cl | ATCC 10231 | 200 µg | 16 mm
C[C@@H]1[C@@H](COCC(=O)O)C[C@@H](O[C@H]2[C@H](O)[C@@H](N(Cc3ccc(Cl)cc3)CC(O)C[N+](C)(C)C)[C@H](O[C@H]3[C@H](O)[C@@H](N(Cc4ccc(Cl)cc4)CC(O)C[N+](C)(C)C)[C@H](C)O[C@@H]3COCC(=O)O)O[C@@H]2COCC(=O)O)[C@H](N(Cc2ccc(Cl)cc2)CC(O)C[N+](C)(C)C)[C@H]1O | RCMB 05031 | 1 mg/mL | 16.1 mm

A second listing of 6 rows from above:

| structure | strain or isolate | dose | result |
|---|---|---|---|
| C[C@@H]1[C@@H](COCC(=O)O)C[C@@H](O[C@H]2[C@H](O)[C@@H](N(Cc3cccc(Cl)c3)CC(O)C[N+](C)(C)C)[C@H](O[C@H]3[C@H](O)[C@@H](N(Cc4cccc(Cl)c4)CC(O)C[N+](C)(C)C)[C@H](C)O[C@@H]3COCC(=O)O)O[C@@H]2COCC(=O)O)[C@H](N(Cc2cccc(Cl)c2)CC(O)C[N+](C)(C)C)[C@H]1O | RCMB 05031 | 1 mg/mL | 19.5 mm |
| Cc1cc(C)cc(Nc2ccc(N)c3nc[nH]c(=O)c23)c1 | ATCC 10231 | 1000 µg/mL | 0 mm |
| O=C1CSC(c2ccccc2)N1Nc1nc2ccccc2n2nnnc12 | ATCC 2091 | 100 µg/mL | 9 mm |
| CCN(CC)c1ccc(N)c2nc[nH]c(=O)c12 | ATCC 10231 | 1000 µg/mL | 0 mm |
| CC(=O)Nc1nc(C)c(-c2n[nH]c(=S)n2N2C(=O)CSC2c2ccccc2O)s1 | - | 100 µg/mL | 10 mm |
| CCOC(=O)C1CCN(Cn2nc(C34CC5CC(CC(C5)C3)C4)n(/N=C/c3c(F)cccc3Cl)c2=S)CC1 | IFO 3007 | 200 µg/disc | <10 mm |